Anti-infective test results gathered from many reports (values: NIAID ChemDB through PubChem).

All rows: enzyme or target tests; agent: HIV-1; protein: Reverse transcriptase; read-out: IC50

Blank or dashed fields: not listed here. a–b is a range or a potency band. ICn: concentration for n% inhibition. Rows are shuffled and stem from different studies.

smiles | strain or isolate | mutations | method | value
Fc1ccc2c(c1)CN(c1nn3c(C4CC4)nnc3c3ccccc13)CC2 | KER2008 | - | RT activity / fluorescence | 0.78 µM
CC(C)(C)c1ccc(-n2nnnc2SCC(=O)Nc2ccc(NC(=O)Cc3ccccc3)cc2Cl)c(Cl)c1 | WT | - | PicoGreen / fluorescence | <1 µM
CCc1ccc(-n2c(SCC(=O)Nc3ccc(C(=O)O)cc3Cl)nnc2C(F)(F)F)c2ccccc12 | - | RT-Y188L | nucleotide incorporation / radiometric | >0.1 µM
CCc1ccc(-n2c(I)nnc2SCC(=O)Nc2ccc(S(N)(=O)=O)cc2Cl)c2ccccc12 | - | RT-Y181C | nucleotide incorporation / radiometric | 0.05–0.1 µM
O=C1OCC2OC(=O)c3cc(O)c(O)c(O)c3-c3c(O)c(O)c(O)c4c3C(=O)OC(C2OC(=O)c2cc(O)c(O)c(O)c2-c2c1cc(O)c(O)c2O)C1OC(=O)c2c-4c(O)c(O)c(O)c2[C@H]1O | - | - | nucleotide incorporation | >20 µg/mL
CCN1c2ncc(CCc3cccc4[nH]ccc34)cc2C(=O)N(C)c2ccc(Cl)nc21 | WT | - | nucleotide incorporation / radiometric | <1 µM
NS(=O)(=O)c1ccc(NC(=O)CSc2nnc(C(F)F)n2-c2ccc(C3CCCC3)c3ccccc23)c(Cl)c1 | - | RT-Y188L | nucleotide incorporation / radiometric | >0.1 µM
O=C(O)Cc1ccc(-c2ccc(NC(=O)CSc3nnnn3-c3cc4ccccc4cc3Cl)c(Cl)c2)cc1 | - | RT-K103 Y181C | PicoGreen / fluorescence | <1 µM
CCN1c2nc(Cl)ccc2NC(=O)c2cc(CCc3ccncc3)cnc21 | - | RT-Y181C | nucleotide incorporation / radiometric | <1 µM
Cc1ccc(-c2nnsc2SCC(=O)Nc2ccc(-c3ccc(CC(=O)O)cc3)cc2Cl)c(Cl)c1 | WT | - | PicoGreen / fluorescence | <1 µM
CCOC(=O)N1CCC(NC(=O)c2ccc(NC(=O)CSc3nnc(Br)n3-c3ccc(CC)c4ccccc34)c(Cl)c2)CC1 | - | - | nucleotide incorporation / radiometric | <0.05 µM
CC(C)(C#Cc1ccc(NC(=O)CSc2nnc(C3CC3)n2-c2ccc(C3CC3)cc2Cl)c(Cl)c1)C(=O)O | WT | - | PicoGreen / fluorescence | <1 µM
Oc1cc(O)c2c(c1)O[C@@]1(c3ccc(O)c(O)c3)Oc3cc(O)c4c(c3[C@@H]2[C@H]1O)O[C@H](c1ccc(O)c(O)c1)[C@H](O)C4 | - | - | nucleotide incorporation | >20 µg/mL
O=C(CSc1nnc(Br)n1-c1c(Cl)cc(C2CCC2)c2ccccc12)Nc1ccc(C(=O)O)cc1Cl | - | RT-Y181C | nucleotide incorporation / radiometric | <0.05 µM
Cc1cc(C2CC2)cc(Cl)c1-n1c(Br)nnc1SCC(=O)Nc1ccc(C(=O)O)cc1Cl | - | RT-Y181C | nucleotide incorporation / radiometric | <0.05 µM
Nc1nc2c(ncn2[C@H]2CC[C@@H](COP(=O)(O)OP(=O)(O)OP(=O)(O)O)O2)c(=O)[nH]1 | - | - | nucleotide incorporation | 0.06 µM
COc1ccc2c(C3CC3)ccc(-n3c(Br)nnc3SCC(=O)Nc3ccc(C(=O)O)cc3Cl)c2c1 | - | RT-Y181C | nucleotide incorporation / radiometric | <1.05 µM
O=C(O)Cc1ccc(-c2ccc(NC(=O)CSc3nnnn3-c3ccc(OC(F)(F)F)cc3Cl)c(Cl)c2)cc1 | - | RT-K103 Y181C | PicoGreen / fluorescence | <1 µM
c1ccc(-c2nnc3c4ccccc4c(N4CCc5ccccc5C4)nn23)cc1 | 98US_MSC5016 | - | RT activity / fluorescence | 87.2 µM
CC(C)(N)C#Cc1ccc(NC(=O)CSc2nnnn2-c2cc(C(F)(F)F)ccc2Cl)c(Cl)c1F | WT | - | PicoGreen / fluorescence | <1 µM
CCc1ccc(-n2c(Br)nnc2SCC(=O)Nc2ccc(C(=O)NCC(O)CO)cc2Cl)c2ccccc12 | - | - | nucleotide incorporation / radiometric | <0.05 µM
Nc1cnc2c(c1)CN(c1nn3c(C4CC4)nnc3c3ccccc13)CC2 | 98US_MSC5016 | - | RT activity / fluorescence | 21.7 µM
CC[C@H](C)[C@H](NC(=O)c1ccc(NC(=O)CSc2nnc(Br)n2-c2ccc(C3CC3)c3ccccc23)c(Cl)c1)C(=O)O | - | - | nucleotide incorporation / radiometric | <0.05 µM
CCOC(=O)CCNC(=O)c1ccc(NC(=O)CSc2nnc(Br)n2-c2ccc(C3CC3)c3ccccc23)c(Cl)c1 | - | RT-Y188L | nucleotide incorporation / radiometric | <0.05 µM
CC(C)(C#Cc1ccc(NC(=O)CSc2nnnn2-c2cc(C(F)(F)F)cc(C3CC3)c2Cl)c(Cl)c1F)NC(=O)CN1CCNCC1 | - | RT-K103 Y181C | PicoGreen / fluorescence | <1 µM
Cc1ccc2c(C)cc(C)c(-n3c(SCC(=O)Nc4ccc(S(N)(=O)=O)cc4Cl)nnc3C(F)F)c2n1 | - | RT-Y181C | nucleotide incorporation / radiometric | 0.05–0.1 µM
O=C(COc1ccc(NC(=O)CSc2nnnn2-c2ccc(C3CC3)cc2Cl)c(Cl)c1)NCCc1ccc[n+]([O-])c1 | - | RT-K103 Y181C | PicoGreen / fluorescence | <1 µM
CC(C)OC(=O)CNC(=O)c1ccc(NC(=O)CSc2nnc(Br)n2-c2ccc(C3CC3)c3ccccc23)c(Cl)c1 | - | RT-Y188L | nucleotide incorporation / radiometric | <0.05 µM
CCN1c2nc(C(F)(F)F)ccc2NC(=O)c2cc(CCOc3cc[n+]([O-])c4ccccc34)cnc21 | - | RT-K103N Y181C | nucleotide incorporation / radiometric | 0.084 µM
CCN1c2ncc(CCc3ccncc3)cc2C(=O)Nc2c(C)ccnc21 | WT | - | nucleotide incorporation / radiometric | <1 µM
CC(C)(C)c1ccc(-n2nnnc2SCC(=O)Nc2ccc(OCC(=O)NCCO)cc2Cl)c(Cl)c1 | - | RT-K103 Y181C | PicoGreen / fluorescence | <1 µM
O=C1OCC2OC(O)C(O)C(O)C2OC(=O)c2cc(O)c(O)c(O)c2-c2c(O)c(O)c3oc(=O)c4c(c(O)c(O)c5oc(=O)c2c3c54)-c2c1cc(O)c(O)c2O | - | - | nucleotide incorporation | <20 µg/mL
Cc1nnc(SCC(=O)Nc2ccc(C#CC(C)(C)COC(N)=O)cc2Cl)n1-c1ccc(C2CC2)cc1Cl | - | RT-K103 Y181C | PicoGreen / fluorescence | <1 µM
CCc1ccc(-n2c(SCC(=O)Nc3ccc(C(=O)O)cc3C)nnc2C(F)F)c2ccccc12 | - | RT-Y181C | nucleotide incorporation / radiometric | >0.1 µM
CCOC(=O)NC(C)(C)C#Cc1ccc(NC(=O)CSc2nnnn2-c2ccc(C3CC3)cc2Cl)c(Cl)c1 | WT | - | PicoGreen / fluorescence | <1 µM
O=C(O)C1=C[C@@H](O)[C@@H](O)[C@H](OC(=O)c2cc(O)c(O)c(O)c2)C1 | - | - | nucleotide incorporation | >20 µg/mL
O=C(O)Cc1ccc(-c2ccc(NC(=O)CSc3nnnn3-c3ccc(C(F)(F)F)cc3Cl)c(Cl)c2)cc1 | WT | - | PicoGreen / fluorescence | <1 µM
COc1ccc2c(C)ccc(-n3c(Br)nnc3SCC(=O)Nc3ccc(C(=O)O)cc3Cl)c2c1 | - | RT-Y181C | nucleotide incorporation / radiometric | <0.05 µM
CC(C)(C#Cc1ccc(NC(=O)CSc2nnnn2-c2cc(C(F)(F)F)ccc2Cl)c(Cl)c1)NC(=O)c1ncccn1 | WT | - | PicoGreen / fluorescence | <1 µM
CCc1ccc(-n2c(Br)nnc2SCC(=O)Nc2ccc(C(=O)O)cc2Br)c2ccccc12 | - | - | nucleotide incorporation / radiometric | <0.05 µM
Cc1ccc(-n2nnnc2SCC(=O)Nc2ccc(-c3csc(N)n3)cc2Cl)c(Cl)c1 | - | RT-K103 Y181C | PicoGreen / fluorescence | <1 µM
O=C(O)CCNC(=O)c1ccc(NC(=O)CSc2nnc(Br)n2-c2ccc(C3CC3)c3ccccc23)c(Cl)c1 | - | - | nucleotide incorporation / radiometric | <0.05 µM
CN1CCN(C(=O)c2ccc(NC(=O)CSc3nnnn3-c3ccc(C(C)(C)C)cc3Cl)c(Cl)c2)CC1 | - | RT-K103 Y181C | PicoGreen / fluorescence | <1 µM
CC(Sc1nnc(Br)n1-c1ccc(C2CC2)c2ccccc12)C(=O)Nc1ccc(S(N)(=O)=O)cc1Cl | - | - | nucleotide incorporation / radiometric | <0.05 µM
CCOC(=O)[C@H](Cc1ccc(O)cc1)NC(=O)c1ccc(NC(=O)CSc2nnc(Br)n2-c2ccc(C3CC3)c3ccccc23)c(Cl)c1 | - | - | nucleotide incorporation / radiometric | 0.05–0.1 µM
CCc1ccc(-n2c(Br)nnc2SCC(=O)Nc2ccc(C(=O)NCC(C)(C)N)cc2Cl)c2ccccc12 | - | - | nucleotide incorporation / radiometric | <0.05 µM
CC(=O)Nc1cc2c(cc1OC(F)(F)F)CCN(c1nn3c(C)nnc3c3ccccc13)C2 | IIIB | - | RT activity / fluorescence | 0.61 µM
NS(=O)(=O)c1ccc(NC(=O)CSc2nnc(Br)n2-c2ccc(C3CCC3)c3ccccc23)c(Cl)c1 | - | RT-Y188L | nucleotide incorporation / radiometric | <0.05 µM
O=C1OCC2OC(=O)c3cc(O)c(O)c(O)c3-c3c(O)c(O)c(O)c4c3C(=O)OC(C2OC(=O)c2cc(O)c(O)c(O)c2-c2c1cc(O)c(O)c2O)C1OC(=O)c2c-4c(O)c(O)c(O)c2[C@@H]1O | - | - | nucleotide incorporation | >20 µg/mL
CC(C)(C#Cc1ccc(NC(=O)CSc2nnnn2-c2cc(C(F)(F)F)ccc2Cl)c(Cl)c1F)OCCOc1ccncc1 | WT | - | PicoGreen / fluorescence | <1 µM
Nc1ccc2c(c1)CN(c1nn3c(C4CC4)nnc3c3ccccc13)CC2 | IIIB | - | RT activity / fluorescence | 0.19 µM
Cc1ccc(-n2c(SCC(=O)Nc3ccc(C(=O)O)cc3Cl)nnc2C(F)F)c2c1CCCC2 | - | RT-Y188L | nucleotide incorporation / radiometric | >0.1 µM
O=C(COc1ccc(NC(=O)CSc2nnnn2-c2ccc(C3CC3)cc2Cl)c(Cl)c1)NCCc1ccncc1 | - | RT-K103 Y181C | PicoGreen / fluorescence | <1 µM
CCc1ccc(-n2c(Br)nnc2SCC(=O)Nc2ccc(C(=O)NCC3CCCO3)cc2Cl)c2ccccc12 | - | RT-Y188L | nucleotide incorporation / radiometric | <0.05 µM
CC(C)(C#Cc1ccc(NC(=O)CSc2nnnn2-c2cc(C(C)(C)C)cc(Br)c2Cl)c(Cl)c1)NC(=O)CN=c1ccn(O)cc1 | - | RT-K103 Y181C | PicoGreen / fluorescence | <1 µM
COc1ccc2c(C3CC3)ccc(-n3c(Br)nnc3SCC(=O)Nc3ccc(S(N)(=O)=O)cc3Cl)c2c1 | - | RT-Y181C | nucleotide incorporation / radiometric | <0.05 µM
COC(=O)[C@@H](NC(=O)c1ccc(NC(=O)CSc2nnc(Br)n2-c2ccc(C3CC3)c3ccccc23)c(Cl)c1)C(C)C | - | RT-Y181C | nucleotide incorporation / radiometric | <0.05 µM
O=C(OC[C@H]1O[C@@H](OC(=O)c2cc(O)c(O)c(O)c2)[C@H](OC(=O)c2cc(O)c(O)c(O)c2)[C@@H](OC(=O)c2cc(O)c(O)c(O)c2)[C@@H]1OC(=O)c1cc(O)c(O)c(O)c1)c1cc(O)c(O)c(O)c1 | - | - | nucleotide incorporation | >20 µg/mL
O=[N+]([O-])c1ccc2c(c1)CN(c1nn3c(C4CC4)nnc3c3ccccc13)CC2 | KER2008 | - | RT activity / fluorescence | 6.22 µM
Cc1ccc2c(C)cc(C)c(-n3c(SCC(=O)Nc4ccc(S(N)(=O)=O)cc4C)nnc3C(F)F)c2n1 | - | RT-Y188L | nucleotide incorporation / radiometric | >0.1 µM
CCN1c2ncc(CCc3ccc4c(SC)c[nH]c4c3)cc2C(=O)N(C)c2ccc(Cl)nc21 | WT | - | nucleotide incorporation / radiometric | <1 µM
CCOC(=O)CNC(=O)c1ccc(NC(=O)CSc2nnc(Br)n2-c2ccc(C3CC3)c3ccccc23)c(Cl)c1 | - | RT-Y188L | nucleotide incorporation / radiometric | <0.05 µM
O=C(O[C@@H]1O[C@@H]2COC(=O)c3cc(O)c(O)c(O)c3-c3c(cc(O)c(O)c3O)C(=O)O[C@H]([C@H]1O)[C@@H]2O)c1cc(O)c(O)c(O)c1 | - | - | nucleotide incorporation | >20 µg/mL
CC(C)Oc1ccc(Cl)c(-n2nnnc2SCC(=O)Nc2ccc(C#CC(C)(C)C(=O)O)cc2Cl)c1 | WT | - | PicoGreen / fluorescence | <1 µM
CCc1ccc(-n2c(Br)nnc2SCC(=O)Nc2ccc(C(=O)NCCCCO)cc2Cl)c2ccccc12 | - | RT-Y181C | nucleotide incorporation / radiometric | <0.05 µM

Repeating the final 6 entries:

| smiles | strain or isolate | mutations | method | value |
|---|---|---|---|---|
| Cc1ccc2c(C)cc(C)c(-n3c(SCC(=O)Nc4ccc(S(N)(=O)=O)cc4C)nnc3C(F)F)c2n1 | - | RT-Y188L | nucleotide incorporation / radiometric | >0.1 µM |
| CCN1c2ncc(CCc3ccc4c(SC)c[nH]c4c3)cc2C(=O)N(C)c2ccc(Cl)nc21 | WT | - | nucleotide incorporation / radiometric | <1 µM |
| CCOC(=O)CNC(=O)c1ccc(NC(=O)CSc2nnc(Br)n2-c2ccc(C3CC3)c3ccccc23)c(Cl)c1 | - | RT-Y188L | nucleotide incorporation / radiometric | <0.05 µM |
| O=C(O[C@@H]1O[C@@H]2COC(=O)c3cc(O)c(O)c(O)c3-c3c(cc(O)c(O)c3O)C(=O)O[C@H]([C@H]1O)[C@@H]2O)c1cc(O)c(O)c(O)c1 | - | - | nucleotide incorporation | >20 µg/mL |
| CC(C)Oc1ccc(Cl)c(-n2nnnc2SCC(=O)Nc2ccc(C#CC(C)(C)C(=O)O)cc2Cl)c1 | WT | - | PicoGreen / fluorescence | <1 µM |
| CCc1ccc(-n2c(Br)nnc2SCC(=O)Nc2ccc(C(=O)NCCCCO)cc2Cl)c2ccccc12 | - | RT-Y181C | nucleotide incorporation / radiometric | <0.05 µM |